Construct, isoform or probe ends are uncertain for at least one entry.
Assays:
Experiment in all cases: EMSA
Conditions in all cases: EMSA: LightShift kit, 20 fM biotinylated DNA, 146 nM GST-PmtR, 20 ul, 20 min, room temperature
[1] = biological target: PSMα1 (Staphylococcus aureus) (UniProt A9JX05)
[2] = biological target: PSMα2 (Staphylococcus aureus) (UniProt A9JX06)
[3] = biological target: PSMα4 (Staphylococcus aureus) (UniProt A9JX08)

Amino acid sequences for entries named in this document (tags omitted). A change or cut given only in a name is not applied to a line headed by its entry.
UniProt A9JX05: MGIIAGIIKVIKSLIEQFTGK
UniProt A9JX06: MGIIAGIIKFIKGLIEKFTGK
UniProt A9JX08: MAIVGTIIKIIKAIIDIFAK

Measured: binding result

AATCACAATCTACTACCTTACTGGAATTTAATTTATCTTATAATTTCCCTTGCATATAAGTTACATTACTTCAGCCTCCTAATTGTACCCTTAGCACGAAGACAAATTTGTTCTTACCTATATTTCATCATTGGTAAGGGGATTGCATGTCCCACGTAAAACATTGTTAAACTCTTAGGTTTTTGAACGATAAAAACTTT (double strand) [random DNA fragment]
binds: all assays above

Reference: article PMC5080381
